Results of unrelated studies side by side (data: NIAID ChemDB).

Shared fields: tests on isolated targets; agent: HIV-1; target: gp120

Inhibition is in % at the dose shown (toxicity tests: loss of growth or viability). Neighbouring rows are from separate reports. Fold resistance has wild type as its base. ICn is the concentration giving n% inhibition. Blank or dashed fields: not listed here.

SMILES,method,dose,read-out,strain,changes,result
C=CC1=C(C)C2=NC1=CC1=NC(=Cc3[n-]c4c(c3C)=C([O-])[C@H](C(=O)OC)C=4C3=NC(=C2)[C@@H](C)[C@@H]3CCC(=O)OC/C=C(\C)CCCC(C)CCCC(C)CCCC(C)C)C(CC)=C1C.[Mg+2],-,60 µg/mL,inhibition,-,-,46%
COc1ccnc2[nH]cc(C(=O)C(=O)N3CCN(C(=O)c4ccccc4)C[C@H]3C)c12,ELISA,-,fold resistance,LAI,GP120-M343I,28
CCCCCCC[C@H]1CC2CCC3=C(C(=O)OCCCCN=C(N)N)C(CCCCC)N=C(N1)N32,-,-,IC50,-,-,>100 µM
O=CC1OC(=O)c2cc(O)c(O)c(O)c2Oc2cc3c(c(O)c2O)-c2c(cc(O)c(O)c2O)C(=O)OCC2OC(OC(=O)c4cc(O)c(O)c(O)c4Oc4cc5c(c(O)c4O)-c4c(cc(O)c(O)c4O)C(=O)OC(C(O)COC5=O)C1OC(=O)c1cc(O)c(O)c(O)c1)C(OC(=O)c1cc(O)c(O)c(O)c1)C(OC(=O)c1cc(O)c(O)c(O)c1)C2OC3=O,binding,6.25 µg/mL,inhibition,-,-,64.7%
CCCCCCCCC[C@H]1CC2CCC3C(C(=O)OCCCCN=C(N)N)[C@@H](C)N=C(N1)N23,-,-,IC50,-,-,>100 µM
CC1=C(CCC(=O)O)c2cc3nc(cc4[nH]c(cc5[nH]c(cc1n2)c(C)c5C(O)CO)c(C)c4C(O)CO)C(C)=C3CCC(=O)O,-,60 µg/mL,inhibition,-,-,43.3%
CC(C)(CS(=O)(=O)[O-])[NH2+]C(=O)C(CC(F)(OC(F)(F)C(F)(OC(F)(F)C(F)(OC(F)(F)C(F)(F)C(F)(F)F)C(F)(F)F)C(F)(F)F)C(F)(F)F)C(F)(OC(F)(F)C(F)(OC(F)(F)C(F)(OC(F)(F)C(F)(F)C(F)(F)F)C(F)(F)F)C(F)(F)F)C(F)(F)F,ELISA,0.8 µg/mL,inhibition,-,-,60%
C=CC1=C(C)C2=NC1=CC1=NC(=C(CC)/C1=C\[O-])C=c1[n-]c3c(c1C)C(=O)[C@H](C(=O)OC)C=3C1=NC(=C2)[C@@H](C)[C@@H]1CCC(=O)OC/C=C(\C)CCCC(C)CCCC(C)CCCC(C)C.[Mg+2],-,-,IC50,-,-,<60 µg/mL
NOCc1c(F)cccc1Cl,ELISA,100 µg/mL,inhibition,-,-,21.7%
O=C(OC[C@H]1O[C@@H](O)[C@@H]2OC(=O)c3cc(O)c(O)c(O)c3-c3c(cc(O)c(O)c3O)C(=O)O[C@H]2[C@@H]1OC(=O)c1cc(O)c(O)c(O)c1Oc1cc2c(c(O)c1O)-c1c(cc(O)c(O)c1O)C(=O)O[C@@H]1[C@@H](OC2=O)[C@H](OC(=O)c2cc(O)c(O)c(O)c2)O[C@@H]2COC(=O)c3cc(O)c(O)c(O)c3-c3c(cc(O)c(O)c3O)C(=O)O[C@@H]12)c1cc(O)c(OC(=O)c2cc(O)c(O)c(O)c2)c(O)c1,binding,6.25 µg/mL,inhibition,-,-,88.5%
CSCC[C@H](NC(=O)[C@H](CCSC)NC(=O)[C@H](C)NC(=O)[C@H](CCC(=O)O)NC(=O)[C@H](CO)NC(=O)[C@H](Cc1c[nH]c2ccccc12)NC(=O)[C@@H]1CCCN1)C(=O)O,ELISA,-,IC50,HXB2,-,>500 µM
C=Cc1c(C)c2cc3nc(cc4[nH]c(cc5nc(cc1[nH]2)C(C)=C5CO)c(C)c4CCC(=O)O)C(CCC(=O)O)=C3C,-,-,IC50,-,-,<60 µg/mL
O=CC(O)C(OC(=O)c1cc(O)c(O)c(O)c1)C1OC(=O)c2cc(O)c(O)c(O)c2-c2c(cc(O)c(O)c2O)C(=O)OCC1O,binding,12.5 µg/mL,inhibition,-,-,67.4%
CC[C@H](C)[C@H](N)C(=O)N[C@@H](CC(N)=O)C(=O)N[C@@H](CC(N)=O)C(=O)N[C@H](C(=O)N1CCC[C@H]1C(=O)N[C@@H](Cc1c[nH]c2ccccc12)C(=O)N[C@@H](CO)C(=O)O)[C@@H](C)CC,ELISA,-,IC50,HXB2,-,610 µM
CC1=C(CCC(=O)O)c2cc3[nH]c(cc4nc(cc5[nH]c(cc1n2)c(CCC(=O)O)c5CC(=O)O)C(CCC(=O)O)=C4C)c(CCC(=O)O)c3CC(=O)O,-,-,IC50,-,-,>60 µg/mL

The first 2 rows once more:

| SMILES | method | dose | read-out | strain | changes | result |
|---|---|---|---|---|---|---|
| C=CC1=C(C)C2=NC1=CC1=NC(=Cc3[n-]c4c(c3C)=C([O-])[C@H](C(=O)OC)C=4C3=NC(=C2)[C@@H](C)[C@@H]3CCC(=O)OC/C=C(\C)CCCC(C)CCCC(C)CCCC(C)C)C(CC)=C1C.[Mg+2] | - | 60 µg/mL | inhibition | - | - | 46% |
| COc1ccnc2[nH]cc(C(=O)C(=O)N3CCN(C(=O)c4ccccc4)C[C@H]3C)c12 | ELISA | - | fold resistance | LAI | GP120-M343I | 28 |